Experiment [1] has as its system HCV-NS5BΔ21 RdRp mutants. Conditions: P495L, M423T, H95Q, M414T, S556A, C316Y, S96A, S282T.
For experiment [2], the target named is HCV-NS5BΔ21 RdRp mutants (Hepatitis C virus genotype 1b, UniProt O92972, D2978A). To be noted: D559 variant.

From PMC4132742, “Inhibition of RNA binding to hepatitis C virus RNA-dependent RNA polymerase: a new mechanism for antiviral intervention” (Nucleic Acids Research, 2014) come the findings set out here.

In the case of `O=c1c(O)c(-c2ccc(O)c(O)c2)oc2cc(O)c(O)c(O)c12` [Quercetagetin], in the experiment with HCV-NS5BΔ21 RdRp mutants [1], the “susceptibility of mutants resistant to other NI and NNI classes” value is on record as “None of these substitutions altered”. Moreover, the “reduction of susceptibility relative to wild type” value on HCV-NS5BΔ21 RdRp mutants [2] is recorded as 7 fold.
